A mixed list of measured activities; the numbers were collected in NIAID ChemDB.

Common to all: growth or infection tests; species: Sindbis virus

ECn: concentration that inhibits the pathogen or its effect by n%.

| compound | endpoint | method | cells | value |
|---|---|---|---|---|
| Nc1ncnc2c1ncn2[C@@H]1C=C(CO)[C@@H](O)[C@H]1O | MIC | - | - | >10 µg/mL |
| Nc1cc(OC[C@H](CO)OCP(=O)(O)O)nc(N)n1 | EC50 | cytopathic effect | - | >15 µM |
| O=c1[nH]cnc2c1ncn2[C@@H]1C=C(CO)[C@@H](O)[C@H]1O | EC50 | cytopathic effect | VERO | >400 µg/mL |
| Nc1cc(OCCOCP(=O)(O)O)nc(N)n1 | EC50 | cytopathic effect | - | >190 µM |
| Nc1ncnc2c1ccn2[C@@H]1O[C@H](CO)[C@H](O)[C@H]1O | EC50 | cytopathic effect | VERO | ≥40 µg/mL |
| Nc1ncnc2c1ncn2[C@@H]1C[C@H](CO)[C@@H](O)C1 | EC50 | cytopathic effect | VERO | >100 µg/mL |
| O=c1[nH]c(=O)n([C@H]2C[C@H](O)[C@@H](CO)O2)cc1/C=C/Br | EC50 | plaque count | BHK-21/C13 | >500 µM |
| C[C@H](COc1cc(N)nc(N)n1)OCP(=O)(O)O | EC50 | cytopathic effect | - | >180 µM |
| Cc1cn([C@@H]2C[C@H](CO)[C@@H](O)C2)c(=O)[nH]c1=O | EC50 | cytopathic effect | VERO | >100 µg/mL |
| COc1cc(O)c2c(=O)c3cccc(O)c3n(C)c2c1OC | EC50 | plaque count | VERO | >20 µg/mL |
| OCCOC([C@H](O)CO)n1cnc2cc(Cl)c(Cl)cc21 | EC50 | cytopathic effect | HeLa | >200 µg/mL |
| Nc1nccc2c1ncn2[C@@H]1C[C@H](CO)[C@@H](O)[C@H]1O | EC50 | cytopathic effect | VERO | 40 µg/mL |
| Nc1ncnc2c1ncn2C[C@H](O)CO | EC50 | cytopathic effect | VERO | 150 µg/mL |
| Nc1nc2c(nnn2C[C@H]2CC[C@@H](CO)C2)c(=O)[nH]1 | EC50 | cytopathic effect | VERO | >200 µg/mL |
| Nc1ncnc2c1c(Br)cn2[C@@H]1O[C@H](CO)[C@@H](O)[C@H]1O | EC50 | cytopathic effect | VERO | 0.2 µg/mL |
| O[C@@H]1CC(n2cnc3cc(Cl)c(Cl)cc32)OC[C@@H]1O | EC50 | cytopathic effect | HeLa | >200 µg/mL |
| Cc1cn([C@H]2C[C@H](O)[C@@H](CO)[C@@H]2C)c(=O)[nH]c1=O | EC50 | cytopathic effect | VERO | >400 µg/mL |
| Nc1ncnc2c1ccn2[C@@H]1O[C@H](CO)[C@@H](O)[C@H]1O | EC50 | cytopathic effect | VERO | >0.1 µg/mL |
| Nc1ncnc2c1ncn2C[C@H](O)CO | EC50 | cytopathic effect | VERO | >400 µg/mL |
| Nc1ncnc2c1ncn2C[C@H](O)CO | EC50 | cytopathic effect | VERO | >400 µg/mL |
| Nc1nc(N)c2nnn(C[C@H]3CC[C@@H](CO)C3)c2n1 | EC50 | cytopathic effect | VERO | >100 µg/mL |
| Nc1ncnc2c1ncn2[C@@H]1C=C(CO)[C@@H](O)[C@H]1O | EC50 | cytopathic effect | VERO | >10 µg/mL |
| OC[C@H]1O[C@H](n2cnc3cc(Cl)c(Cl)cc32)[C@@H](O)[C@H]1O | EC50 | cytopathic effect | HeLa | >200 µg/mL |
| Nc1ncnc2c1ccn2[C@@H]1C[C@H](CO)[C@@H](O)[C@H]1O | EC50 | cytopathic effect | VERO | ≥10 µg/mL |
| Nc1ncnc2c1c(Br)cn2[C@@H]1O[C@H](CO)[C@@H](O)[C@H]1O | EC50 | cytopathic effect | VERO | >0.1 µg/mL |
| O[C@@H]1[C@@H](OCc2ccccc2)[C@@H](COCc2ccccc2)O[C@H]1n1cnc2cc(Cl)c(Cl)cc21 | EC50 | cytopathic effect | HeLa | >10 µg/mL |
| Nc1nc(Cl)c2nnn(C[C@H]3CC[C@@H](CO)C3)c2n1 | EC50 | cytopathic effect | VERO | >200 µg/mL |
| Nc1ncnc2c1ncn2[C@H]1[C@H](O)[C@H](O)[C@]2(CO)O[C@H]12 | EC50 | cytopathic effect | VERO | 7 µg/mL |
| CC(C)[Si]1(C(C)C)OC[C@H]2O[C@@H](n3cnc4cc(Cl)c(Cl)cc43)[C@@H](O)[C@H]2O[Si](C(C)C)(C(C)C)O1 | EC50 | cytopathic effect | HeLa | >10 µg/mL |
| C[C@H]1C[C@@H](n2cnc3c(N)ncnc32)[C@H](O)[C@@H]1O | EC50 | cytopathic effect | VERO | >100 µg/mL |
| Nc1ncnc2c([C@H]3C[C@H](O)[C@@H](CO)O3)[nH]nc12 | EC50 | cytopathic effect | VERO | 400 µg/mL |
| COC(C)c1cn([C@@H]2O[C@H](CO)[C@@H](O)[C@H]2O)c2ncnc(N)c12 | EC50 | cytopathic effect | VERO | 40 µg/mL |
| Nc1nccc2c1ncn2[C@@H]1C[C@H](CO)[C@@H](O)[C@H]1O | EC50 | cytopathic effect | VERO | >100 µg/mL |
| Nc1ncnc2c1ncn2[C@@H]1C=C(CO)[C@@H](O)[C@H]1O | EC50 | cytopathic effect | VERO | 2 µg/mL |

Lines come from different laboratories, so protocols vary. Blank or dashed fields: not listed here.